Results taken from patent publication US9625458B2, “Biosensor” (priority 2002, dated 2017).

Test: Fluorescence emission spectra without and with saturating ligand (wavelength shift, ΔIstd, ΔRmax)
Conditions: for λmax,apo (nm) / λmax,sat (nm): emission maximum; for λmax,apo (nm): absence of ligand; for λmax,sat (nm): saturating ligand (ligand column); for ΔIstd: standard intensity change; for ΔIstd / ΔRmax: unbound vs ligand-saturated; for ΔRmax: standard ratiometric change; for ΔRmax (maximum standard ratiometric change): apo vs saturating ligand, optimal pair of emission bands
Protocol: Fluorimetry. All measurements were conducted with an SLM Aminco-Bowman series 2 fluorimeter, with sample stirring at 25° C. Fluorescence emission spectra were acquired with excitation and emission slit widths of 4 and 8 nm, respectively. Photomultiplier tube potential was maintained between 400 and 800 volts. Protein concentrations were in the range of 50 to 1000 nM. Fluorophore-specific excitation was at the following approximate wavelengths: tryptophan, 290 nm; acrylodan, 390 nm; fluorescein, 485 nm; pyrene, 340 nm; NBD and NBDE, 490 nm; JPW4039, 485 nm; JPW4042, 470 nm; JPW4045, 470 nm.
Assessment of fluorescent biosensor function. Fluorescence emission spectra of bPBP-fluorophore conjugates were recorded in the absence and presence of saturating ligand concentrations. Spectral changes were characterized by four parameters: wavelength shift (the difference between the wavelengths of emission maximum in the unbound and ligand-saturated states), direction of intensity change (increase or decrease in intensity at the wavelengths of maximum emission in the two states), standard intensity change (ΔIstd), and standard ratiometric change (ΔR). ΔIstd is defined as the normalized intensity change relative to the average intensity, determined at the wavelength mid-point between the two emission maxima:
[formula] where λstd=(λmax, unbound+λmax, saturated)/2 and I1, I2 are the fluorescence intensities at λstd of each spectrum respectively (FIG. 4A). ΔR is defined in terms of two emission bands, A1 ([λ1, λ2]) and A2 ([λ3, λ4]) (FIG. 4B):
[formula] where ^∘A1, […] the areas in the absence of ligand, and ^∞A1, ^∞A2 the areas in the presence of saturating ligand. A computer program was used to enumerate ΔR for all possible pairs of wavelength bands in the two spectra, to identify the optimal sensing condition, defined as the maximum value of ΔR. Adjustable parameters of the algorithm, and their values used for ΔRmax quantities reported here, are: step size (2 nm), step width (10 nm), minimum integration area limit (fraction of total: 0.1), and maximum integration area limit (fraction of total: 1).

Row | Molecule | λmax,apo (nm) | λmax,sat (nm) | ΔIstd | ΔRmax | ΔRmax (maximum standard ratiometric change)
1 | Glu/Asp BP G211C Fluorescein (conjugate, UniProt P37902 23-302, looked up, variant G211C, fluorescein label) Glutamate/aspartate import …: DDAAPAAGSTLDKIAKNGVIVVGHRESSVPFSYYDNQQKVVGYSQDYSNAIVEAVKKKLNKPDLQVKLIPITSQNRIPLLQNGTFDFECGSTTNNVERQKQAAFSDTIFVVGTRLLTKKGGDIKDFANLKDKAVVVTSGTTSEVLLNKLNEEQKMNMRIISAKDHGDSFRTLESGRAVAFMMDDALLACERAKAKKPDNWEIVGKPQSQEAYGCMLRKDDPQFKKLMDDTIAQVQTSGEAEKWFDKWFKNPIPPKNLNMNFELSDEMKALFKEPNDKALN | 522 | 521 | 0.03 | 0.18 | –
2 | Glu/Asp BP Q123C NBD (conjugate, UniProt P37902 23-302, looked up, variant Q123C, NBD conjugate) Glutamate/aspartate import …: DDAAPAAGSTLDKIAKNGVIVVGHRESSVPFSYYDNQQKVVGYSQDYSNAIVEAVKKKLNKPDLQVKLIPITSQNRIPLLQNGTFDFECGSTTNNVERQKCAAFSDTIFVVGTRLLTKKGGDIKDFANLKDKAVVVTSGTTSEVLLNKLNEEQKMNMRIISAKDHGDSFRTLESGRAVAFMMDDALLAGERAKAKKPDNWEIVGKPQSQEAYGCMLRKDDPQFKKLMDDTIAQVQTSGEAEKWFDKWFKNPIPPKNLNMNFELSDEMKALFKEPNDKALN | 544 | 542 | 0.01 | 0.53 | –
3 | Glu/Asp BP G211C NBD (conjugate, UniProt P37902 23-302, looked up, variant G211C, NBD dye conjugate) Glutamate/aspartate import …: DDAAPAAGSTLDKIAKNGVIVVGHRESSVPFSYYDNQQKVVGYSQDYSNAIVEAVKKKLNKPDLQVKLIPITSQNRIPLLQNGTFDFECGSTTNNVERQKQAAFSDTIFVVGTRLLTKKGGDIKDFANLKDKAVVVTSGTTSEVLLNKLNEEQKMNMRIISAKDHGDSFRTLESGRAVAFMMDDALLACERAKAKKPDNWEIVGKPQSQEAYGCMLRKDDPQFKKLMDDTIAQVQTSGEAEKWFDKWFKNPIPPKNLNMNFELSDEMKALFKEPNDKALN | 538 | 538 | 0.07 | 0.32 | –
4 | Glu/Asp BP Q123C Fluorescein (conjugate, UniProt P37902 23-302, looked up, variant Q123C, fluorescein label) Glutamate/aspartate import …: DDAAPAAGSTLDKIAKNGVIVVGHRESSVPFSYYDNQQKVVGYSQDYSNAIVEAVKKKLNKPDLQVKLIPITSQNRIPLLQNGTFDFECGSTTNNVERQKCAAFSDTIFVVGTRLLTKKGGDIKDFANLKDKAVVVTSGTTSEVLLNKLNEEQKMNMRIISAKDHGDSFRTLESGRAVAFMMDDALLAGERAKAKKPDNWEIVGKPQSQEAYGCMLRKDDPQFKKLMDDTIAQVQTSGEAEKWFDKWFKNPIPPKNLNMNFELSDEMKALFKEPNDKALN | 524 | 522 | 0.13 | 2.23 | –
5 | Glu/Asp BP Q123C Acrylodan (conjugate, UniProt P37902 23-302, looked up, variant Q123C, acrylodan label) Glutamate/aspartate import …: DDAAPAAGSTLDKIAKNGVIVVGHRESSVPFSYYDNQQKVVGYSQDYSNAIVEAVKKKLNKPDLQVKLIPITSQNRIPLLQNGTFDFECGSTTNNVERQKCAAFSDTIFVVGTRLLTKKGGDIKDFANLKDKAVVVTSGTTSEVLLNKLNEEQKMNMRIISAKDHGDSFRTLESGRAVAFMMDDALLAGERAKAKKPDNWEIVGKPQSQEAYGCMLRKDDPQFKKLMDDTIAQVQTSGEAEKWFDKWFKNPIPPKNLNMNFELSDEMKALFKEPNDKALN | 498 | 495 | 0.10 | 0.40 | –
6 | Glu/Asp BP Q123C JPW4045 (conjugate, UniProt P37902 23-302, looked up, variant Q123C, JPW4045 dye conjugate) Glutamate/aspartate import …: DDAAPAAGSTLDKIAKNGVIVVGHRESSVPFSYYDNQQKVVGYSQDYSNAIVEAVKKKLNKPDLQVKLIPITSQNRIPLLQNGTFDFECGSTTNNVERQKCAAFSDTIFVVGTRLLTKKGGDIKDFANLKDKAVVVTSGTTSEVLLNKLNEEQKMNMRIISAKDHGDSFRTLESGRAVAFMMDDALLAGERAKAKKPDNWEIVGKPQSQEAYGCMLRKDDPQFKKLMDDTIAQVQTSGEAEKWFDKWFKNPIPPKNLNMNFELSDEMKALFKEPNDKALN | 640 | 641 | 0.00 | 0.88 | –
7 | Glu/Asp BP T129C JPW4039 (conjugate, UniProt P37902 23-302, looked up, variant T129C, JPW4039 dye conjugate) Glutamate/aspartate import …: DDAAPAAGSTLDKIAKNGVIVVGHRESSVPFSYYDNQQKVVGYSQDYSNAIVEAVKKKLNKPDLQVKLIPITSQNRIPLLQNGTFDFECGSTTNNVERQKQAAFSDCIFVVGTRLLTKKGGDIKDFANLKDKAVVVTSGTTSEVLLNKLNEEQKMNMRIISAKDHGDSFRTLESGRAVAFMMDDALLAGERAKAKKPDNWEIVGKPQSQEAYGCMLRKDDPQFKKLMDDTIAQVQTSGEAEKWFDKWFKNPIPPKNLNMNFELSDEMKALFKEPNDKALN | 587 | 584 | 0.09 | 0.73 | –
8 | Glu/Asp BP Q123C JPW4039 (conjugate, UniProt P37902 23-302, looked up, variant Q123C, JPW4039 dye conjugate) Glutamate/aspartate import …: DDAAPAAGSTLDKIAKNGVIVVGHRESSVPFSYYDNQQKVVGYSQDYSNAIVEAVKKKLNKPDLQVKLIPITSQNRIPLLQNGTFDFECGSTTNNVERQKCAAFSDTIFVVGTRLLTKKGGDIKDFANLKDKAVVVTSGTTSEVLLNKLNEEQKMNMRIISAKDHGDSFRTLESGRAVAFMMDDALLAGERAKAKKPDNWEIVGKPQSQEAYGCMLRKDDPQFKKLMDDTIAQVQTSGEAEKWFDKWFKNPIPPKNLNMNFELSDEMKALFKEPNDKALN | 592 | 588 | 0.05 | 0.75 | –
9 | arabinose BP K301C-NBD: arabinose BP K301C (C64A) mutant conjugated to NBD (conjugate, UniProt P02924 24-329, looked up, variant K301C C64A, NBD label) L-arabinose-binding …: ENLKLGFLVKQPEEPWFQTEWKFADKAGKDLGFEVIKIAVPDGEKTLNAIDSLAASGAKGFVIATPDPKLGSAIVAKARGYDMKVIAVDDQFVNAKGKPMDTVPLVMMAATKIGERQGQELYKEMQKRGWDVKESAVMAITANELDTARRRTTGSMDALKAAGFPEKQIYQVPTKSNDIPGAFDAANSMLVQHPEVKHWLIVGMNDSTVLGGVRATEGQGFKAADIIGIGINGVDAVSELSKAQATGFYGSLLPSPDVHGYKSSEMLYNWVAKDVEPPKFTEVTDVVLITRDNFKEELEKCGLGGK | – | – | – | – | 3.2
10 | arabinose BP L253C-fluorescein: arabinose BP L253C (C64A) mutant conjugated to fluorescein (conjugate, UniProt P02924 24-329, looked up, variant L253C C64A, fluorescein conjugate) L-arabinose-binding …: ENLKLGFLVKQPEEPWFQTEWKFADKAGKDLGFEVIKIAVPDGEKTLNAIDSLAASGAKGFVIATPDPKLGSAIVAKARGYDMKVIAVDDQFVNAKGKPMDTVPLVMMAATKIGERQGQELYKEMQKRGWDVKESAVMAITANELDTARRRTTGSMDALKAAGFPEKQIYQVPTKSNDIPGAFDAANSMLVQHPEVKHWLIVGMNDSTVLGGVRATEGQGFKAADIIGIGINGVDAVSELSKAQATGFYGSLCPSPDVHGYKSSEMLYNWVAKDVEPPKFTEVTDVVLITRDNFKEELEKKGLGGK | – | – | – | – | 2.7
11 | ribose BP T135C-acrylodan: ribose BP T135C mutant conjugated to acrylodan (conjugate, UniProt P02925 26-296, looked up, variant T135C, acrylodan label) Ribose import binding protein …: KDTIALVVSTLNNPFFVSLKDGAQKEADKLGYNLVVLDSQNNPAKELANVQDLTVRGTKILLINPTDSDAVGNAVKMANQANIPVITLDRQATKGEVVSHIASDNVLGGKIAGDYIAKKAGEGAKVIELQGIAGCSAARERGEGFQQAVAAHKFNVLASQPADFDRIKGLNVMQNLLTAHPDVQAVFAQNDEMALGALRALQTAGKSDVMVVGFDGTPDGEKAVNDGKLAATIAQLPDQIGAKGVETADKVLKGEKVQAKYPVDLKLVVKQ | – | – | – | – | 6.3
12 | ribose BP A234C-JPW4045: ribose BP A234C mutant conjugated to dye JPW4045 (conjugate, UniProt P02925 26-296, looked up, variant A234C, JPW4045 dye conjugate) Ribose import binding protein …: KDTIALVVSTLNNPFFVSLKDGAQKEADKLGYNLVVLDSQNNPAKELANVQDLTVRGTKILLINPTDSDAVGNAVKMANQANIPVITLDRQATKGEVVSHIASDNVLGGKIAGDYIAKKAGEGAKVIELQGIAGTSAARERGEGFQQAVAAHKFNVLASQPADFDRIKGLNVMQNLLTAHPDVQAVFAQNDEMALGALRALQTAGKSDVMVVGFDGTPDGEKAVNDGKLAATICQLPDQIGAKGVETADKVLKGEKVQAKYPVDLKLVVKQ | – | – | – | – | 4.1
